Results of unrelated studies side by side (data: NIAID ChemDB).

All rows: whole-cell or culture tests; agent: Varicella zoster virus; read by: cytopathic effect; read-out: EC50

ECn: concentration that inhibits the pathogen or its effect by n%.

smiles	strain	cell line	result
Nc1[nH]c(=O)nc2c1ncn2/C=C1/C[C@H]1CO		HFF	>429 µM
Nc1ncnc2ncn(COCCCl)c12	YS/R (TK-)	VERO	>128 µg/mL
Nc1ccn(C[C@@H](CO)OCP(=O)(O)O)c(=O)n1	4 strains	HEL	0.25 µg/mL
Nc1ncnc2c1ncn2CCOCP(=O)(O)O	YS		38 µM
Nc1nc2ncn(COCCCl)c2c(=O)[nH]1	YS (TK+)	VERO	>128 µg/mL
O=c1[nH]cnc2c1ncn2CC(CO)OCP(=O)(O)O	4 strains	HEL	>400 µg/mL
O=C(Nc1ncc([N+](=O)[O-])s1)c1ccccc1O			4 µg/mL
Nc1nc(OCCOCP(=O)(O)O)cc(OCCOCP(=O)(O)O)n1	OKA	HEL	50 µg/mL
C[C@H]1C[C@@H](n2cnc3c(N)ncnc32)[C@H](O)[C@@H]1O	YS	HEL	12 µg/mL
C[C@H](Cn1cnc2c(N)ncnc21)OCP(=O)(O)O	YS		≥350 µM
Nc1ncnc2c1ncn2C[C@H]1COP(=O)(O)CO1	4 strains	HEL	0.03 µg/mL
Nc1cc(OCCOCP(=O)(O)O)nc(N)n1	OKA		2.7 µM
Nc1nc(N)c2ncn(CC(CO)OCP(=O)(O)O)c2n1	4 strains	HEL	1 µg/mL
Nc1[nH]c(=O)nc2c1ncn2/C=C1/C[C@@H]1CO		HFF	>85.8 µM
Nc1ncnc2c1ncn2CCOCP(=O)(O)O	Oka PFA-resistant/A	HEL	86.7 µM
Nc1ncnc2c1ncn2C[C@@H](CO)OCP(=O)(O)O	4 strains	HEL	0.02 µg/mL

For reference, 2 entries again:

smiles,strain,cell line,result
Nc1ncnc2c1ncn2C[C@@H](CO)OCP(=O)(O)O,4 strains,HEL,0.02 µg/mL
Nc1cc(OCCOCP(=O)(O)O)nc(N)n1,OKA,,2.7 µM

Rows are shuffled and stem from different studies. An empty or dashed field is not shown.